# Experimental data from PubChem BioAssay AID493005 (National Center for Advancing Translational Sciences (NCATS), 2010).
# Sequences of proteins named here, by UniProt entry; tags and fusion partners are left off.
# UniProt Q99816, whole entry: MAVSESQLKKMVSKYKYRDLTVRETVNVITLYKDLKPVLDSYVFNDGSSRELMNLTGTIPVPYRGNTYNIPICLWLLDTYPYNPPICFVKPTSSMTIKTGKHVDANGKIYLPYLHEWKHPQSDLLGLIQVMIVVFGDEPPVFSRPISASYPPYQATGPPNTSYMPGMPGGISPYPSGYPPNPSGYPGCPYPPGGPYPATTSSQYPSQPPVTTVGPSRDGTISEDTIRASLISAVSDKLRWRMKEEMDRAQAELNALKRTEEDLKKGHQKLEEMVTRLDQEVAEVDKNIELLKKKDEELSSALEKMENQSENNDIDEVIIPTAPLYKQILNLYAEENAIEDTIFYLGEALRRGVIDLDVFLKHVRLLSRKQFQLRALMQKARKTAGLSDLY
# Only a part is listed here, and it is no random draw. Some salts or complexes appear as unconnected parts, following the source record. The source made the active and inactive calls. Calls follow the shape of the dose curve; as a rule, active = well fitted inhibition curve with a large enough effect in the main read-out, with a control signal flat (not every such curve was filed as active); inconclusive = small, poorly fitted or top-dose-only effect, or effect the other way, or a change in a side signal; inactive = no such curve, though single readings can be large or run the other way.
# Target: Tumor susceptibility gene 101 protein (Homo sapiens) (UniProt Q99816)
# Experiment: qHTS Assay for Iinhibitors of HIV-1 Budding by Blocking the Interaction of PTAP/TSG101; also: % of control where 0% means no effect
# Conditions: Fluorescence polarization, FITC-PTAP peptide / Tsg101 binding; at 115 µM (top of the series)
# Excerpt: NIH Molecular Libraries Probe Production Network [MLPCN] NIH Chemical Genomics Center [NCGC] MLPCN Grant: 1 R03 MH087464-01A1 PI Name: Dr. Eric Freed, NCI NCGC Assay Overview: Stages of the HIV-1 replication cycle, specifically virus assembly and release, provide underexploited targets for the development of novel antiviral inhibitors. The late stages of HIV-1 replication are mediated by the Gag precursor protein, Pr55Gag. Expression of Pr55Gag is both necessary and sufficient for the production of virus-like particles from Gag-expressing cells. The Gag protein hijacks key host proteins involved in endocytic machinery of the host cell to promote endosomal processing and viral budding. The budding process requires a direct interaction between a […] (PTAP) motif in the p6 domain of Gag and the cellular endosomal sorting protein known as Tsg101. In this way, the Gag PTAP motif promotes the host cells to recruit viral particles to the plasma membrane where the new viral particles are released, effectively turning the host cells into viral factories. A fluorescence anisotropy assay has been developed to quantitatively measure the PTAP-Tsg101 interaction which can be used to screen for inhibitors of this interaction.
# NCGC Assay Protocol Summary: Two uL of the Tsg101 binding domain in buffer (10 mM HEPES pH 7.5; 0.15 M NaCl, 0.01% Tween 20; 3 mM EDTA;0.1 mM TCEP) was dispensed into Greiner black MB 1536-well plates (final concentration 10 uM). Then, 23 nL of compounds or DMSO were delivered to each well using a pin tool. Finally, 2 uL of a FITC-labeled peptide containing the PTAP motif (1) in the same buffer was dispensed (50 nM final concentration) and the binding was allowed to proceed for 20 min. at r.t. Fluorescent polarization was determined using FITC excitation and polarized emission filters on a Perkin Elmer Viewlux. Keywords: Tsg101, PTAP, Gag, HIV, fluorescent polarization, MLSMR, MLPCN, NIH Roadmap, qHTS, NCGC
row,SMILES,"activity change, negative = inhibition"
1,COc1cc(OC)cc(C(=O)NCC2(N3CCCCC3)CCCCC2)c1,inactive: 0.258%
2,CC(=O)N(c1ccccc1)C1CCNCC1,inactive: -11.4%
3,Cc1ccc(NC2(C#N)CCN(Cc3ccccc3)CC2)cc1,inactive: 1.61%
4,Cc1ccc(C(=O)NCC2(N3CCCCC3)CCCCC2)o1,inactive: 0.156%
5,Fc1ccccc1NC1CCN(Cc2ccccc2)CC1,inactive: -4.49%
6,Cc1ccccc1NC1(C#N)CCN(Cc2ccccc2)CC1,inactive: -3.56%
7,CCN1CCC(Nc2cccc(F)c2)CC1,inactive: -0.839%
8,O=C(NCC1(N2CCCCC2)CCCCC1)c1ccco1,inactive: -2.54%
9,CN(C)c1ccc(C(=O)NCC2(N3CCCCC3)CCCCC2)cc1,inactive: -4.34%
10,Cn1c(=O)[nH]cc(N(CCCl)CCCl)c1=O,inactive: -1.71%
11,CCOc1ncccc1C(=O)NCC1(N2CCOCC2)CCCCC1,inactive: -0.408%
12,CN1CCC(Nc2ccc(F)c(Cl)c2)CC1,inactive: 2.4%
13,CCCOc1ccc(C(=O)NCC2(N(C)C)CCCCC2)cc1,inactive: -6.41%
14,CC(C)(C)OC(=O)N1CCC(Nc2ccccc2)CC1,inactive: -2.23%
15,O=C(O)C1(Nc2ccccc2)CCN(Cc2ccccc2)CC1,inactive: -4.3%
16,CCC(CO)(C(=O)OC1CN2CCC1CC2)c1ccccc1 (configuration not stated),inactive: -4.22%
17,COc1cccc(C(=O)N(c2cc(C)cc(C)c2)C2CCN(C(=O)OC(C)(C)C)CC2)c1,inactive: -2.27%
18,COc1cc(OC)cc(C(=O)NCC2(N3CCOCC3)CCCCC2)c1,inactive: -1.43%
19,CN1CCC(Nc2ccc(Cl)cc2)CC1,inactive: -3.85%
20,O=C(NCC1(N2CCOCC2)CCCCC1)c1cc(Br)ccc1Cl,inactive: 2.27%
21,COc1cc(C(=O)NCC2(N3CCOCC3)CCCCC2)cc(OC)c1C,inactive: -1.37%

row,SMILES,"activity change, negative = inhibition"
1,COc1ccc(C(=O)NCC2(N3CCOCC3)CCCCC2)cc1OC,inactive: 2.99%
2,N/C(=N\O)c1c(N)no[n+]1[O-],inactive: -2.52%
3,CCOC(=O)N1CCC(Nc2ccc(C)cc2)CC1,inactive: 1.09%
4,CCc1cc(C(=O)NCC2(N3CCCCC3)CCCCC2)sc1C,inactive: -1.93%
5,O=C(OC1CN2CCC1CC2)C1c2ccccc2C=Cc2ccccc21 (configuration not stated),inactive: -0.776%
6,O=C(O)c1cccc(Nc2c([N+](=O)[O-])cc([N+](=O)[O-])cc2[N+](=O)[O-])c1,inactive: -1.73%
7,CC(C)(C)OC(=O)N1CCC(N(C(=O)c2ccccc2)c2ccc(Cl)cc2)CC1,inactive: -3.01%
8,N#Cc1ccc(C(=O)NCC2(N3CCCCC3)CCCCC2)cc1,inactive: 0.0598%
9,CCOC(=O)C(CC)C1=NC(C)(C)Cc2ccccc21.O=[N+]([O-])c1cc([N+](=O)[O-])c(O)c([N+](=O)[O-])c1 (configuration not stated),inactive: -5.34%
10,c1ccc(CN2CCC(Nc3ccccc3)CC2)cc1,inactive: -3.75%
11,Cc1cc(N(CCCl)CCCl)ccc1C=O,inactive: -2.68%
12,CCCN1CCC(Nc2cc(OC)cc(OC)c2)CC1,inactive: 0.176%
13,CN(C)C1(CNC(=O)c2cccc(C#N)c2)CCCCC1,inactive: -1.3%
14,O=C(NCC1(N2CCCCC2)CCCCC1)c1ccc(OC(F)F)cc1,inactive: 0.467%
15,O=C(NCC1(N2CCCCC2)CCCCC1)c1cccc([N+](=O)[O-])c1,inactive: -0.906%
16,CSc1ccc(C(=O)NCC2(N3CCOCC3)CCCCC2)cc1,inactive: -8.87%
17,CCN1CCC(Nc2ccc(Cl)cc2)CC1,inactive: 0.343%
18,N#CC1(Nc2ccccc2)CCN(CCc2ccccc2)CC1,inactive: -1.28%
19,O=C(NCC1(N2CCCCC2)CCCCC1)c1cccc(C(F)(F)F)c1,inactive: -2.68%
20,O=[N+]([O-])c1cc([N+](=O)[O-])c(NCC2CCS(=O)(=O)C2)c([N+](=O)[O-])c1 (configuration not stated),inactive: 0.0863%
21,CC(C)c1ccc(C(=O)NCC2(N3CCOCC3)CCCCC2)cc1,inactive: -0.258%

row,SMILES,"activity change, negative = inhibition"
1,COc1ccc(NC2CCN(C(=O)OC(C)(C)C)CC2)cc1,inactive: -3.68%
2,CN1CCN(CCOC(=O)C(O)(c2ccccc2)c2ccccc2)CC1,inactive: -4.5%
3,O=C(NCC1(N2CCOCC2)CCCCC1)c1cc(=O)[nH]c2ccccc12,inactive: -1.23%
4,COc1cc(C(=O)NCC2(N3CCCCC3)CCCCC2)ccc1OC(F)F,inactive: -0.937%
5,COc1ccc(CN(CCCl)CCCl)cc1Cl,inactive: -4.17%
6,CN(C)c1cccc(C(=O)NCC2(N3CCCCC3)CCCCC2)c1,inactive: 0.723%
7,O=[N+]([O-])c1cc([N+](=O)[O-])c(OC2CCCCC2O)c([N+](=O)[O-])c1 (configuration not stated),inactive: -7.19%
8,CC(C)c1ccc(NC2CCN(C(=O)OC(C)(C)C)CC2)cc1,inactive: -0.303%
9,COc1cc(OC)c(C(=O)NCC2(N(C)C)CCCCC2)cc1OC,inactive: -5.78%
10,O=C(NCC1(N2CCOCC2)CCCCC1)c1cc(F)c(F)cc1Cl,inactive: 0.254%
11,CN1CCC(Nc2cccc(F)c2)CC1,inactive: -0.487%
12,COc1ccc2c(c1O)-c1c(O)c(OC)cc3c1[C@H](C2)[N+](C)(C)CC3.O=[N+]([O-])c1cc([N+](=O)[O-])c([O-])c([N+](=O)[O-])c1[O-],inactive: -4.82%
13,O=C(NCC1(N2CCCCC2)CCCCC1)c1cncc(Br)c1,inactive: -2%
14,O=C(OC1CN2CCC1CC2)c1ccc([N+](=O)[O-])cc1 (configuration not stated),inactive: -2.11%
15,CCCOc1ccc(C(=O)NCC2(N(C)C)CCCCC2)cc1OC,inactive: -2.24%
16,O=C(NCC1(N2CCCCC2)CCCCC1)c1ccc(=O)[nH]c1,inactive: -3.76%
17,O=C(NCC1(N2CCCCC2)CCCCC1)c1cccs1,inactive: -1.02%
18,COc1ccc(C(=O)NCC2(N3CCCCC3)CCCCC2)cc1,inactive: 0.327%
19,CC(C)(C)OC(=O)N1CCC(N(C(=O)c2ccccc2)c2ccc(F)cc2)CC1,inactive: -6.55%
20,COc1ccc(C(=O)NCC2(N3CCCCC3)CCCCC2)c(OC)c1OC,inactive: -8.41%
21,CSc1ccccc1C(=O)NCC1(N2CCCCC2)CCCCC1,inactive: -13.1%

row,SMILES,"activity change, negative = inhibition"
1,Cc1cccc(NC2(C#N)CCN(Cc3ccccc3)CC2)c1,inactive: -0.681%
2,O=C(NCC1(N2CCOCC2)CCCCC1)c1cc2ccccc2o1,inactive: -0.0013%
3,O=C(NCC1(N2CCCCC2)CCCCC1)c1ccc(Cl)nc1,inactive: -9.08%
4,Cc1cc(C)cc(N(C(=O)c2ccccc2)C2CCN(C(=O)OC(C)(C)C)CC2)c1,inactive: -4.47%
5,CCOC(=O)N1CCC(Nc2ccc(OC)cc2)CC1,inactive: -0.633%
6,O=C(NCC1(N2CCCCC2)CCCCC1)c1ccc(Cl)s1,inactive: -0.89%
7,N#CC1(Nc2ccccc2)CCN(Cc2ccccc2)CC1,inactive: -4.55%
8,O=C(OC1CN2CCC1CC2)C1c2ccccc2Oc2ccccc21 (configuration not stated),inactive: -2.24%
9,COc1ccc(Cl)cc1C(=O)NCC1(N2CCOCC2)CCCCC1,inactive: 1.15%
10,O=C1C(O)=C([N+](=O)[O-])C(=O)C(O)=C1[N+](=O)[O-],inactive: -7.32%
11,CCOc1ccc(C)cc1CN(CCCl)CCCl,inactive: -2.66%
12,O=C1CCN(Cc2ccccc2)CC1,inactive: -2.62%
13,CCCCOc1ccc(C(=O)NCC2(N3CCOCC3)CCCCC2)cc1,inactive: -0.16%
14,O=P1(N(CCCl)CCCl)SCCCS1,inactive: -7.14%
15,O=C(NCC1(N2CCCCC2)CCCCC1)c1ccc(F)cc1,inactive: -0.801%
16,CCOC(=O)N1CCC(Nc2ccc(F)cc2)CC1,inactive: -1.42%
17,COc1ccc(NC2CCN(CCc3ccccc3)CC2)c(OC)c1,inactive: -0.621%
18,CCOC(=O)N1CCC(Nc2cccc(C)c2)CC1,inactive: -0.959%
19,COc1cc(C(=O)NCC2(N(C)C)CCCCC2)ccc1OC(F)F,inactive: -6.13%
